Results as given in patent publication US8772197B2, “Compositions for chemical and biological defense” (dated 2014).

Test system: Pseudomonas aeruginosa (ATCC strain 15152)
Experiment: Bactericidal activity of magnetic particles against Pseudomonas aeruginosa
Conditions: particles suspended at 3 wt % (1 mL + 2 mL bacterial suspension); chlorhexidine 0.2 wt % final; 10 min contact, 37° C.

With [H]/N=C(\N/C(=N/[H])NCCCCCCNC(=N)NC(=N)Nc1ccc(Cl)cc1)Nc1ccc(Cl)cc1 the Bacterial colonies was “Not detected”.
